{"source": "patent US20140235490", "key": {"[1]": {"system": "T1, #115: [5-Fam]TRIDEANQRATK[DABCYL]-Nle, BoNT/A cleavable peptide", "T1 sequence": "TRIDEANQRATKX"}, "[2]": {"system": "T2, #116: [4-Mu]TRIDEANQRATK[DABCYL]-Nle, BoNT/A cleavable peptide", "T2 sequence": "TRIDEANQRATKX"}}}
{"substance": "Botulinum neurotoxin type A (BoNT/A), form not stated", "values": [{"measurement": "KM", "setting": "[1]", "result": 4.99, "unit": "µM"}, {"measurement": "KM", "setting": "[2]", "result": 2.62, "unit": "µM"}]}
{"substance": "Trypsin", "values": [{"measurement": "KM", "setting": "[1]", "result": 9.67, "unit": "µM"}, {"measurement": "KM", "setting": "[2]", "result": 3.4, "unit": "µM"}]}
